Anti-infective test results gathered from many reports (values: NIAID ChemDB through PubChem).

Common to all: whole-cell or culture tests; species: Human cytomegalovirus

Blank or dashed fields: not listed here. Lines come from different laboratories, so protocols vary. ECn is the concentration giving n% inhibition of infection, replication or growth.

| structure | measure | strain or isolate | method | cells | result |
|---|---|---|---|---|---|
| Nc1ncnc2c1ncn2C=C1CC1CO | EC50 | VR4760 (ganciclovir-resistant) | plaque count |  | 2.4 µM |
| CN1CCN(n2cc(C(=O)NCc3ccc(Cl)cc3)c(=O)c3cc(CN4CCOCC4)ccc32)CC1 | EC50 | DAVIS | plaque count | HFF | 1.2 µM |
| Nc1ccn(CC[C@H](O)CCO)c(=O)n1 | EC50 | DAVIS | cytopathic effect | HEL | >400 µg/mL |
| C=Cc1cn([C@H]2C[C@H](O)[C@@H](CO)O2)c(=O)[nH]c1=O | EC50 |  | cytopathic effect | HFF | 78.8 µM |
| Cc1cc(Cl)ccc1NC(=O)Nc1cc(Br)cc(C2=NNC(=O)C2(C)C)c1 | EC50 |  | cytopathic effect | NHDF | 2.1 µM |
| CC(O)c1cn([C@@H]2O[C@H](CO)[C@@H](O)[C@@H]2O)c(=S)[nH]c1=O | EC50 | T-137 | plaque count | MRC-5 | >213 µM |
| O=c1[nH]c(=O)n([C@@H]2C[C@H](CO)C[C@H]2CO)cc1I | EC50 | AD169 |  | HEL | >100 µg/mL |
| COc1ccc(CSCc2cnc3c(Br)cc(Br)c(C)n23)cc1 | EC50 | DAVIS | plaque count | HEL | >50 µg/mL |
| CCOP(=O)([O-])CCCOCn1cnc2c(=O)[nH]c(N)nc21 | EC50 | C8704 | plaque count | MRC-5 | 82 µg/mL |
| CN1C=CCC(C(=O)O[C@H]2C[C@H](n3cc(/C=C/I)c(=O)[nH]c3=O)O[C@@H]2CO)=C1 | EC50 |  | cytopathic effect | HFF | >40 µM |
| Nc1nc(=S)n([C@@H]2O[C@H](CO)[C@@H](O)[C@@H]2O)cc1/C=C/c1ccccc1 | EC50 | T-137 | plaque count | MRC-5 | >213 µM |
| Nc1nc2c(ncn2COC(CO)CO)c(=O)[nH]1 | EC50 | DAVIS | plaque count | MRC-5 | 4.9 µM |
| Cc1nc(N2CCC2)nc(-n2ccnc2)c1[N+](=O)[O-] | EC50 |  |  |  | 0.19 µM |
| Cn1cc(C(=O)O)c(=O)c2cc(N)c(N3CCN(c4cccc(C(F)(F)F)c4)CC3)cc21 | EC50 | AD169 | plaque count | HEL | 0.86 µg/mL |
| Nc1nc2c(ncn2COCCCP(=O)([O-])O)c(=O)[nH]1 | EC50 | AD169 | plaque count | MRC-5 | 11.9 µg/mL |
| Cn1cc(C(=O)NCc2ccc(Cl)cc2)c(=O)c2cc(CN3CCOCC3)ccc21 | EC50 | HA | plaque count | HFF | 1 µM |
| Nc1cc2c(=O)c(C(=O)O)cn(C3CC3)c2cc1N1CCN(c2cccc(C(F)(F)F)c2)CC1 | EC50 | DAVIS | plaque count | HEL | 0.82 µg/mL |
| OC[C@H]1O[C@@H](n2c(Br)nc3cc(Cl)c(Cl)cc32)[C@H](O)[C@@H]1O | EC50 | TOWNE | plaque count | HFF | 2.7 µM |
| CC(O)c1cn([C@@H]2O[C@H](CO)[C@@H](O)[C@@H]2O)c(=S)nc1N | EC50 | 93-1R | plaque count | MRC-5 | 111.8 µM |
| Nc1nc2c(ncn2COC(COP(=O)(O)O)COP(=O)(O)O)c(=O)[nH]1 | EC50 | DAVIS | plaque count | MRC-5 | 6.1 µM |
| Cn1cc(C(=O)O)c(=O)c2cc(N)c(N3CCN(c4nccs4)CC3)cc21 | EC50 | AD169 | plaque count | HEL | 2.6 µg/mL |
| COC(=O)[C@H](C)NP(=O)(OCC1C/C1=C/n1cnc2c(N)ncnc21)Oc1ccccc1 | EC50 | AD169 | cytopathic effect | HFF | 1.3 µM |
| COc1cccc(N2CCN(C3=Nc4c(F)cccc4[C@H](CC(=O)O)N3c3cc(C(F)(F)F)ccc3OC)CC2)c1 | EC50 | rGCV-1 | plaque count |  | 0.0039 µM |
| COCC(C)Nc1nc(C)c([N+](=O)[O-])c(-n2ccnc2C)n1 | EC50 |  |  |  | 0.9 µM |
| Nc1nc2c(ncn2COC(CO)CCP(=O)(O)O)c(=O)[nH]1 | EC50 | AD169 | plaque count | MRC-5 | 7.8 µM |
| Nc1nc2c(ncn2COC(CO)CO)c(=O)[nH]1 | EC50 | C4 (BDCRB-resistant) | virus yield | HFF | <1.6 µM |
| CO[C@H](CO)[C@@H](O)CCn1cnc2c(=O)[nH]c(N)nc21 | EC50 | AD169 | cytopathic effect | HEL | >400 µg/mL |
| Nc1nc2c(ncn2C[C@@H]2CO[C@H](P(=O)(O)O)O2)c(=O)[nH]1 | EC50 | WF1 | plaque count | FLOW 2002 | 15 µg/mL |
| Nc1nc2c(ncn2C[C@@H]2CC[C@@H](P(=O)(O)O)O2)c(=O)[nH]1 | EC50 | C8704 (ganciclovir-resistant) | plaque count | MRC-5 | 0.3 µg/mL |
| Cc1nc(N2CCCC[C@H]2C)nc(-n2ccnc2)c1[N+](=O)[O-] | EC50 |  |  |  | 0.35 µM |
| Cc1c(Br)cc(Br)c2ncc(CSCc3ccc(Cl)cc3Cl)n12 | EC50 | DAVIS | plaque count | HEL | >5 µg/mL |
| Nc1ncnc2c1ncn2C[C@H]1CS[C@@H](P(=O)(O)O)O1 | EC50 | WF1 | plaque count | FLOW 2002 | 60 µg/mL |
| O=C(O)/C=C/c1cn([C@@H]2O[C@H](CO)[C@@H](O)[C@@H]2O)c(=S)[nH]c1=O | EC50 | 93-1R | plaque count | MRC-5 | >213 µM |
| Oc1ccc(Oc2ccc(NC3CCCCCC3)cc2)cc1 | EC50 |  | virus yield |  | 4.1 µM |
| CO[C@@H]1CCCC[C@H]1Nc1nc(C)c([N+](=O)[O-])c(-n2ccnc2)n1 | EC50 |  |  |  | 0.15 µM |
| Nc1nc2c(ncn2COC(CO)CO)c(=O)[nH]1 | EC90 | TOWNE | virus yield | HFF | 3.2 µM |
| CC(C)c1ccc(NC(=O)N2CCC[C@H]2C(=O)N2CC[C@H]3[C@H]2[C@H](C)C(=O)N3C(=O)c2ccc([N+](=O)[O-])cc2)cc1 | EC50 | AD169 | ELISA | VERO | >70 µM |
| CC(C)Nc1ccc(Oc2ccc(O)cc2)cc1 | EC50 |  | virus yield |  | 13.6 µM |
| O=c1ccn([C@@H]2C[C@H](CO)C[C@H]2CO)c(=O)[nH]1 | EC50 | DAVIS |  | HEL | >100 µg/mL |
| Cc1c(Br)cc(Br)c2ncc(CSCc3cccs3)n12 | EC50 | DAVIS | plaque count | HEL | >50 µg/mL |
| CCCC(C)Nc1ccc(Oc2ccc(O)cc2)cc1 | EC50 | XBAF4-3-1 (ganciclovir-resistant) | virus yield |  | 0.35 µM |
| Cc1nc(N2CCCC2)nc(-n2ccnc2)c1[N+](=O)[O-] | EC50 |  |  |  | 0.093 µM |
| CCOP(=O)(CCC(COC)OCn1cnc2c(Cl)nc(N)nc21)OCC | EC50 | AD169 | plaque count | MRC-5 | 112 µM |
| O[C@@H]1[C@H](O)CO[C@H]1n1c(Cl)nc2cc(Cl)c(Cl)cc21 | EC90 | TOWNE | virus yield | HFF | 0.46 µM |
| Nc1nc(N)c2ncn(C[C@H]3CC[C@H](P(=O)(O)O)O3)c2n1 | EC50 | WF1 | plaque count | FLOW 2002 | 65 µg/mL |
| CC(C)Nc1nc2cc(Cl)c(Cl)cc2n1[C@H]1O[C@@H](CO)[C@H](O)[C@@H]1O | EC90 | AD169 | virus yield | HFF | 0.19 µM |
| CO[C@H](CO)[C@@H](O)CCn1cc(C)c(=O)[nH]c1=O | EC50 | AD169 | cytopathic effect | HEL | >400 µg/mL |
| CC(C)c1ccc(NC(=O)N2CCC[C@H]2C(=O)N2CC[C@H]3[C@H]2[C@H](C)C(=O)N3C(=O)c2nccs2)cc1 | EC50 | AD169 | ELISA | VERO | >30 µM |
| Cn1cc(C(=O)NCc2ccc(Cl)cc2)c(=O)c2cc(CN3CCOCC3)ccc21 | EC50 | AD169 | plaque count | HFF | 6.4 µM |
| CCC(C)Nc1ccc(Oc2ccccc2)cc1 | EC50 |  | virus yield |  | >100 µM |
| CCOP(=O)(O)CCC(CO)OCn1cnc2c(=O)[nH]c(N)nc21 | EC50 | DAVIS | plaque count | MRC-5 | 17 µg/mL |
| OC[C@H]1CC(n2cnc3c(NC4CC4)ncnc32)C[C@@H]1CO | EC50 | DAVIS |  | HEL | >100 µg/mL |
| Oc1ccc(Sc2ccc(NC3CCCCCC3)cc2)cc1 | EC50 |  | virus yield |  | 12.9 µM |
| OC[C@H]1O[C@@H](n2c(Br)nc3cc(Cl)c(Cl)cc32)[C@H](O)[C@@H]1O | EC50 | 2916 (bdcrb maribavir-resistant) | virus yield | HFF | 0.38 µM |
| O=C(Nc1cccc(-c2n[nH]c(=O)n2C2CCCCC2)c1)Nc1ccc(F)c(Cl)c1 | EC50 |  | cytopathic effect | NHDF | 0.29 µM |
| CCc1nccn1-c1nc(NC2CCc3c(F)ccc(F)c32)nc(C)c1[N+](=O)[O-] | EC50 |  |  |  | 0.09 µM |
| O=c1[nH]c(=O)n([C@H]2C[C@H](O)[C@@H](CO)O2)cc1I | EC50 |  | cytopathic effect | HFF | 154 µM |
| Cc1c(Br)cc(Br)c2ncc(CSCc3ccccc3Cl)n12 | EC50 | AD169 | plaque count | HEL | >5 µg/mL |
| COC(=O)C(Cc1c[nH]c2ccccc12)NP(=O)(O)OCC1C/C1=C/n1cnc2c(N)ncnc21 | EC50 | TOWNE | plaque count | HFF | 1.5 µM |
| CCOP(=O)(O)CCCOCn1cnc2c(=O)[nH]c(N)nc21 | EC50 | AD169 | plaque count | MRC-5 | 139 µM |
| Nc1ncnc2c1nnn2[C@@H]1C=C(CO)[C@@H](O)[C@H]1O | EC50 | AD169 | plaque count | HEL | 4.97 µg/mL |
| CO[C@@H]1CCCC[C@H]1Nc1nc(C)c([N+](=O)[O-])c(-n2ccnc2C)n1 | EC50 |  |  |  | 0.7 µM |
| COc1cc(NC(=O)c2ccccc2F)cc(C)c1NC(=S)NC(C)c1ccc(F)cc1 | EC50 |  | virus yield | HFF | >10 µg/mL |
| Nc1ccn(C[C@@H](CO)OCP(=O)(O)O)c(=O)n1 | EC50 | 4760RECPOLA1-1-1 (foscarnet-resistant) | plaque count | HFF | 0.2 µg/mL |
| O=C(NCc1ccc(Cl)cc1)c1cn2c3c(cc(CN4CCOCC4)cc3c1=O)OC(c1cccnc1)C2 | EC50 | Toledo | plaque count | HFF | 5.8 µM |
| CO[C@H](CO)[C@@H](O)CCn1cnc2c(N)ncnc21 | EC50 | AD169 | cytopathic effect | HEL | >400 µg/mL |
| Nc1nc2c(ncn2C[C@H]2CO[C@H](P(=O)(O)O)O2)c(=O)[nH]1 | EC50 | WF1 | plaque count | FLOW 2002 | 1.2 µg/mL |
| CO[C@H]1Cc2ccccc2[C@H]1Nc1nc(C)c([N+](=O)[O-])c(-n2ccnc2)n1 | EC50 |  |  |  | 0.2 µM |
| Oc1ccc(Oc2ccc(NC3CCCC3)cc2)cc1 | EC50 |  | virus yield |  | 0.68 µM |
| Cc1cc(Cl)ccc1NC(=O)Nc1cccc(C2=NNC(=O)C2(C)C)c1 | EC50 |  | cytopathic effect | NHDF | 0.5 µM |
| Nc1nc2c(ncn2COC(CO)CO)c(=O)[nH]1 | EC50 | AD169 | plaque count | MRC-5 | 7 µM |
| CCCc1cn([C@H]2C[C@H](O)[C@@H](CO)O2)c(=S)nc1N | EC50 | 93-1R | plaque count | MRC-5 | >277.4 µM |
| Nc1nc2c(ncn2COC(CO)CO)c(=O)[nH]1 | EC50 | DAVIS | cytopathic effect |  | 0.7 µg/mL |
| CC(C)C(C)Nc1ccc(Oc2ccc(O)cc2)cc1 | EC50 |  | virus yield |  | 12.4 µM |
| C=CC(CO)(CO)CCn1cnc2c(N)ncnc21 | EC50 |  |  |  | 62.16 µg/mL |
| Nc1nc2c(ncn2CO[C@@H](CO)CCP(=O)(O)O)c(=O)[nH]1 | EC50 | AD169 | plaque count | MRC-5 | 4.2 µM |

The last 9 rows once more:

{"structure": "CO[C@H]1Cc2ccccc2[C@H]1Nc1nc(C)c([N+](=O)[O-])c(-n2ccnc2)n1", "measure": "EC50", "result": "0.2 µM"}
{"structure": "Oc1ccc(Oc2ccc(NC3CCCC3)cc2)cc1", "measure": "EC50", "method": "virus yield", "result": "0.68 µM"}
{"structure": "Cc1cc(Cl)ccc1NC(=O)Nc1cccc(C2=NNC(=O)C2(C)C)c1", "measure": "EC50", "method": "cytopathic effect", "cells": "NHDF", "result": "0.5 µM"}
{"structure": "Nc1nc2c(ncn2COC(CO)CO)c(=O)[nH]1", "measure": "EC50", "strain or isolate": "AD169", "method": "plaque count", "cells": "MRC-5", "result": "7 µM"}
{"structure": "CCCc1cn([C@H]2C[C@H](O)[C@@H](CO)O2)c(=S)nc1N", "measure": "EC50", "strain or isolate": "93-1R", "method": "plaque count", "cells": "MRC-5", "result": ">277.4 µM"}
{"structure": "Nc1nc2c(ncn2COC(CO)CO)c(=O)[nH]1", "measure": "EC50", "strain or isolate": "DAVIS", "method": "cytopathic effect", "result": "0.7 µg/mL"}
{"structure": "CC(C)C(C)Nc1ccc(Oc2ccc(O)cc2)cc1", "measure": "EC50", "method": "virus yield", "result": "12.4 µM"}
{"structure": "C=CC(CO)(CO)CCn1cnc2c(N)ncnc21", "measure": "EC50", "result": "62.16 µg/mL"}
{"structure": "Nc1nc2c(ncn2CO[C@@H](CO)CCP(=O)(O)O)c(=O)[nH]1", "measure": "EC50", "strain or isolate": "AD169", "method": "plaque count", "cells": "MRC-5", "result": "4.2 µM"}